Pooled drug test results. Numbers come from NIAID ChemDB, via PubChem.

Shared fields: tests in culture; species: HIV-1; measure: EC50

Conditions beyond the fields shown may differ between rows. ECn is the concentration giving n% inhibition of infection, replication or growth. An empty or dashed field is not shown.

SMILES,read by,cells,strain,changes,conditions,value
CC(C)=CCC/C(C)=C/CC/C(C)=C/Cc1c(O)cc2c(c1O)CNC2=O,luciferase / luminescence,SupT1,,,pseudotyped,17.7 µM
COc1ccc(/C=C2\CCc3c2nc2ccccc2c3C(=O)OC(C)C(=O)NC(N)=O)cc1OC,β-galactosidase / GFP / reporter gene,HEK 293,,,,1 µM
C=C(C)[C@@H]1CC[C@]2(C(=O)NCCCCCCCC(=O)N[C@@H](CC(C)C)[C@@H](O)CC(=O)O)CC[C@]3(C)[C@H](CC[C@@H]4[C@@]5(C)CC[C@H](O)C(C)(C)[C@@H]5CC[C@]43C)[C@@H]12,luciferase / cell fusion,MT-4,NL4-3,,,0.053 µM
C[C@H]1[C@H](O)[C@@H](C)/C=C/C=C/C=C/C=C/C=C/C=C/C=C/[C@H](O[C@@H]2O[C@H](C)[C@@H](O)[C@H](N)[C@@H]2O)C[C@@H]2O[C@](O)(C[C@@H](O)C[C@@H](O)CC[C@H](O)[C@@H](O)C[C@@H](O)CC(=O)O[C@H]1C)C[C@H](O)[C@H]2C(=O)O,p24 / RT activity,PBMC,93BR029 CLADE F R5 (NSI),,,0.9 µM
C[C@H]1CC[C@@H]2C(C)(C)[C@H](O)CC[C@]2(C)[C@@]12Cc1c(O)cc3c(c1O2)CN(CCCC(=O)O)C3=O,luciferase / luminescence,SupT1,,,pseudotyped,59.5 µM
CCCCOC(=O)[C@@H](C)NP(=O)(CO[C@H](C)Cn1cnc2c(N)ncnc21)NC[C@H](C)C(=O)OC(C)C,fluorescence,MT4-GFP,,,10% human serum,11.7 µM
CN1CCN(CC(O)C2OC(C)(C)OC2c2cnn(-c3ccccc3)n2)CC1,cytopathic effect / MTS,CEM + CEM-SS,RF,,,>100 µM
O=C(NCc1ccc(F)cc1F)c1cn2c(c(O)c1=O)C(=O)N1C3CCC(C3)OC1C2,GFP,MT-4,NL4-3,,100% human serum,0.466 µM
CCC(O)[NH+]1CC[NH+](C(O)CC)CC1.[Cl][Pt-2]([Cl])([Cl])([Cl])([Cl])[Cl],luciferase / β-galactosidase,Jurkat cells,,,,>3 µM
Nc1ncnc2c1ccn2[C@@H]1C=C[C@H](CO)C1,cytopathic effect / MTS,MT-4,,,,280 µM
CC(C)=CCC/C(C)=C/CC/C(C)=C/Cc1c(O)cc2c(c1O)CN(CCO)C2=O,luciferase / luminescence,SupT1,,,pseudotyped,9.3 µM
COCCOc1cc(Cl)ccc1CNCC[C@@]12CC[C@]3(C)[C@H](CC[C@@H]4[C@@]5(C)CC[C@H](OC(=O)[C@H]6C[C@@H](C(=O)O)C6(C)C)C(C)(C)[C@@H]5CC[C@]43C)C1=C(C(C)C)C(=O)C2,p24 / ELISA,MT-2,92HT599,,,<1 µM
CC(C)OC(=O)CCNP(=O)(CO[C@H](C)Cn1cnc2c(N)ncnc21)N[C@@H](C)C(=O)OC(C)C,fluorescence,MT4-GFP,,,50% human serum,44.1 µM
CC(C)C1=C2[C@H]3CC[C@@H]4[C@@]5(C)CC[C@H](OC(=O)[C@H]6C[C@@H](C(=O)O)C6(C)C)C(C)(C)[C@@H]5CC[C@@]4(C)[C@]3(C)CC[C@@]2([C@@H](O)CNCc2ccc3nc(-c4ccccc4)[nH]c3c2)CC1=O,p24 / ELISA,MT-2,92HT599,,,<1 µM
CC(C)OC(=O)[C@H](C)NP(=O)(CO[C@H](C)Cn1cnc2c(N)ncnc21)NC[C@H](C)C(=O)OC(C)C,fluorescence,MT4-GFP,,,10% human serum,20 µM
CC1=C(C(=O)Nc2ccc(Cl)c(C(=O)OC(C)C)c2)SCCO1,syncytia,CEM,IIIB,RT-L100I,,>112 µM
C[C@H](Cn1cnc2c(N)ncnc21)OCP(=O)(O)O,,TZM-bl,,NL/2ATZ,,7.5 µM
CC(C)C1=C2[C@H]3CC[C@@H]4[C@@]5(C)CC[C@H](OC(=O)[C@H]6C[C@@H](C(=O)O)C6(C)C)C(C)(C)[C@@H]5CC[C@@]4(C)[C@]3(C)CC[C@@]2([C@@H](O)CNCC(C)(C)NC(=O)c2ccc(F)cc2)CC1=O,p24 / ELISA,MT-2,92HT599,,,<1 µM
Cc1cn(C2OC(CO[Si](C)(C)C(C)(C)C)C3(OS(=O)(=O)C=C3N)C2O[Si](C)(C)C(C)(C)C)c(=O)n(CCCNC(=O)c2ccc(N=[N+]=[N-])cc2O)c1=O,trypan blue,MT-4,IIIB,,,0.68 µM
CC1(C)OC(c2cnn(-c3ccccc3)n2)C(C(O)CN2CCC(Cc3ccccc3)CC2)O1,cytopathic effect / MTS,CEM + CEM-SS,IIIB,,,>100 µM
CC(C)OC(=O)c1cc(NC(=S)OC(C)C)ccc1Cl,syncytia,CEM,IIIB,RT-V179D,,0.33 µM
O=C(N/N=C/c1ccc(-c2ccc(Br)cc2)o1)c1cccc([N+](=O)[O-])c1,luciferase / β-galactosidase,,,,,16 µM
COC(=O)C(C)(C)NP(=O)(OC[C@H]1C=C[C@@H](n2cnc3c(N)ncnc32)C1)Oc1ccccc1,cytopathic effect / MTS,MT-4,,,,0.14 µM
CC1(C)OC(c2cnn(-c3ccccc3)n2)C(C2CO2)O1,cytopathic effect / MTS,CEM + CEM-SS,IIIB,,,>100 µM
CCCCCOC(=O)C(C)(C)NP(=O)(CO[C@H](C)Cn1cnc2c(N)ncnc21)N[C@H](C)CC(=O)OC(C)C,fluorescence,MT4-GFP,,,50% human serum,6.8 µM
Cc1cn(C2OC(CO[Si](C)(C)C(C)(C)C)C3(OS(=O)(=O)C=C3N)C2O[Si](C)(C)C(C)(C)C)c(=O)n(CCCNC(=O)c2ccc(C(=O)c3ccccc3)cc2)c1=O,trypan blue,MT-4,IIIB,,,0.29 µM
C[C@H](NP(=O)(OC[C@H]1C=C[C@@H](n2cnc3c(N)ncnc32)C1)Oc1ccccc1)C(=O)OC(C)(C)C,cytopathic effect / MTS,MT-4,,,,8.2 µM
CCCCCOC(=O)C(C)(C)NP(=O)(CO[C@H](C)Cn1cnc2c(N)ncnc21)N[C@@H](C)CC(=O)OC(C)C,fluorescence,MT4-GFP,,,10% human serum,23.3 µM
CC(C)C1=C2[C@H]3CC[C@@H]4[C@@]5(C)CC[C@H](OC(=O)[C@H]6C[C@@H](C(=O)O)C6(C)C)C(C)(C)[C@@H]5CC[C@@]4(C)[C@]3(C)CC[C@@]2(CC(=O)N[C@@H](C)CNC(=O)c2ccc(Cl)cc2)CC1=O,p24 / ELISA,MT-2,92HT599,,,<1 µM
CC(C)OC(=O)CCNP(=O)(CO[C@H](C)Cn1cnc2c(N)ncnc21)N[C@@H](C)C(=O)OC1CCC1,fluorescence,MT4-GFP,,,10% human serum,120.6 µM
COC(=O)[C@H](C)NP(=O)(OC[C@@H]1CC[C@H](n2cnc3c(N)ncnc32)C1)Oc1ccccc1,cytopathic effect / MTS,MT-4,,,,0.2 µM
CC(C)C1=C2[C@H]3CC[C@@H]4[C@@]5(C)CC[C@H](OC(=O)[C@H]6C[C@@H](C(=O)O)C6(C)C)C(C)(C)[C@@H]5CC[C@@]4(C)[C@]3(C)CC[C@@]2([C@@H](O)CNCC(C)(C)NC(=O)CN2CCCCC2)CC1=O,p24 / ELISA,MT-2,92HT599,,,<1 µM
Cc1cn(C2OC(CO[Si](C)(C)C(C)(C)C)C3(OS(=O)(=O)C=C3N)C2O[Si](C)(C)C(C)(C)C)c(=O)n(CC2CO2)c1=O,trypan blue,MT-4,IIIB,,,0.11 µM
CC(C)C1=C2[C@H]3CC[C@@H]4[C@@]5(C)CC[C@H](OC(=O)[C@H]6C[C@@H](C(=O)O)C6(C)C)C(C)(C)[C@@H]5CC[C@@]4(C)[C@]3(C)CC[C@@]2(CC(=O)N[C@H](CNC(=O)c2ccc(Cl)cc2)C(C)O)CC1=O,p24 / ELISA,MT-2,92HT599,,,<1 µM
C[C@H](NP(=O)(OC[C@H]1C=C[C@@H](n2ccc3c(N)ncnc32)C1)Oc1ccccc1)C(=O)OCc1ccccc1,cytopathic effect / MTS,MT-4,,,,0.175 µM
C[C@H]1CC[C@]2(CC(n3nccn3)=NO2)[C@H]2CN1C(=O)c1c(O)c(=O)c(C(=O)NCc3c(F)cc(F)cc3F)cn12,entry / luminescence,MT-4,IIIB,,,0.001 µM

Repeating the final 4 entries:

SMILES	read by	cells	strain	changes	conditions	value
Cc1cn(C2OC(CO[Si](C)(C)C(C)(C)C)C3(OS(=O)(=O)C=C3N)C2O[Si](C)(C)C(C)(C)C)c(=O)n(CC2CO2)c1=O	trypan blue	MT-4	IIIB			0.11 µM
CC(C)C1=C2[C@H]3CC[C@@H]4[C@@]5(C)CC[C@H](OC(=O)[C@H]6C[C@@H](C(=O)O)C6(C)C)C(C)(C)[C@@H]5CC[C@@]4(C)[C@]3(C)CC[C@@]2(CC(=O)N[C@H](CNC(=O)c2ccc(Cl)cc2)C(C)O)CC1=O	p24 / ELISA	MT-2	92HT599			<1 µM
C[C@H](NP(=O)(OC[C@H]1C=C[C@@H](n2ccc3c(N)ncnc32)C1)Oc1ccccc1)C(=O)OCc1ccccc1	cytopathic effect / MTS	MT-4				0.175 µM
C[C@H]1CC[C@]2(CC(n3nccn3)=NO2)[C@H]2CN1C(=O)c1c(O)c(=O)c(C(=O)NCc3c(F)cc(F)cc3F)cn12	entry / luminescence	MT-4	IIIB			0.001 µM